Test results reported in ChEMBL document CHEMBL4811216, “Chemotherapy for human schistosomiasis: how far have we come? What's new? Where do we go from here?” (RSC Med Chem, 2020).

Assays:
[1] = system: Schistosoma mansoni; assay: Antischistosomal activity against larva Schistosoma mansoni assessed as worm death at 5 uM measured after 48 hrs by stereomicroscopy relative to control
[2] = system: Schistosoma mansoni; assay: Antischistosomal activity against larva Schistosoma mansoni assessed as worm death at 3.125 uM measured after 48 hrs by stereomicroscopy relative to control

CCNc1sc(Br)c([N+](=O)[O-])c1[N+](=O)[O-]
mortality [1]: 100% | mortality [2]: 100%
